Literature values as cited in article PMC2642980 (Bioorganic & medicinal chemistry letters, 2008).

What was measured:
cowpox virus = settings: cited from earlier work
vaccinia virus = settings: plaque reduction assays; cited from earlier work

## 1-Beta-D-arabinofuranosyladenine [Vidarabine]
Cowpox virus
  Fold more active than cidofovir against cowpox virus: 3- to 5 fold
Vaccinia virus
  Fold more active than cidofovir against vaccinia virus: 3- to 5 fold
